Results of unrelated studies side by side (data: NIAID ChemDB).

Common to all: whole-cell or culture tests; agent: Mycobacterium tuberculosis

Two numbers with a dash give a range or band.

structure,tested at,strain or isolate,read-out,method,value
[B-]1n2ccc[n+]2[B-]n2ccc[n+]21,-,H37Rv,MIC,BACTEC,64 µg/mL
CCCCCCCCCNCc1ccc(O)c(OC)c1,-,H37Ra,MIC90,resazurin,150 µM
COC(=O)CSc1nc(N)c2c3c(sc2n1)CC(C(C)(C)C)CC3,-,H37Rv,MIC,MTT,1 µM
CO/N=C1\C(=O)N(CCOCCN2C(=O)/C(=N/OC)c3cc(Cl)ccc32)c2ccc(Cl)cc21,-,H37Rv,MIC,resazurin,>32 µg/mL
O=C(c1ccc2ccccc2c1)c1cn(-c2cccc3ccccc23)nn1,12.5 µg/mL,H37Rv,inhibition,-,0%
COc1ccc(CNc2nc(=O)c3cc(C(F)(F)F)cc([N+](=O)[O-])c3o2)cc1OC,-,H37Rv,MIC90,resazurin,29.22 µg/mL
O=C(Nc1cccc(F)c1)c1cc(F)ccc1O,-,CNCTC MY331/88,MIC,-,31 µM
S=C(Nc1ccccc1)N(c1ccc(Cl)c(Cl)c1)C1CCCCC1,-,-,MIC,visual reading,400 µg/mL
COc1ccccc1C1OC(C2=C(C)NC(=O)NC2c2ccccc2F)=NN1C(C)=O,250 µg/mL,H37Rv,inhibition,agar / visual reading,39%
CCCCCCCCCCCCCCCCCCNCc1ccc(O)c(OC)c1,-,H37Ra,MIC90,resazurin,75 µM
CNC(=S)N(c1ccc(Cl)c(Cl)c1)C(C)C,-,-,MIC,visual reading,>400 µg/mL
CCOC(=O)CCC(=O)CCC(=O)OCC,-,H37Rv,MIC,-,500 µg/mL
CC1=CC(=O)c2c(O)cccc2C1=O,-,H37Ra,MBC,-,800 µg/mL
CN(C)c1ccc(NC(=O)c2cc([N+](=O)[O-])ccc2O)cc1,-,CNCTC MY331/88,MIC,-,31 µM
CCOC(=O)c1cn[nH]n1,-,H37Rv,MIC,-,>12.5 µg/mL
CN(C)c1ccc(/C=C2\N=C(c3ccc(N)cc3)OC2=O)cc1,12.5 µg/mL,H37Rv,inhibition,BACTEC,88%
CN[C@@H]1[C@H](O[C@H]2[C@H](O[C@H]3[C@H](O)[C@@H](O)[C@H](N=C(N)N)[C@@H](O)[C@@H]3N=C(N)N)O[C@@H](C)[C@]2(O)C=O)O[C@@H](CO)[C@H](O)[C@H]1O,-,MTB11 (EMB-R),MIC,-,0.3 µg/mL
NNC(=O)CCCCCC(=O)O,-,H37Rv,MIC,-,50 µg/mL
CCCN1CCN(c2cc(=O)c3nc4c(oc3c2)c2c(=O)c3c(O)c(C)c5c(c34)=C(O)[C@@](C)(O/C=C/[C@H](OC)[C@@H](C)[C@@H](OC(C)=O)[C@H](C)[C@H](O)[C@H](C)[C@@H](O)[C@@H](C)/C=C/C=C(/C)C(=O)N2)O5)CC1,-,20 strains,MIC90,-,0.07 µg/mL
NNC(=O)c1ccncc1,-,Isolate G1,MIC,-,0.031 µg/mL
NC(CCC(N)C(=O)O)C(=O)O,-,H37Rv,MIC,-,>1000 µg/mL
CNC(=S)N(c1ccc(F)c(Cl)c1)C1CCCCC1,-,-,MIC,visual reading,400 µg/mL
Cc1occc1C(=S)Nc1ccc(Cl)c(C(=O)OCC(C)C)c1,-,H37Rv,MIC bound,BACTEC,>12.5 µg/mL
OC[C@H]1O[C@@H](Oc2ccc(/C=C/c3cc(O)cc(O)c3)cc2)[C@H](O)[C@@H](O)[C@@H]1O,-,-,MIC,-,>128 µg/mL
Cc1c[nH]c(C(=O)NN)c1-c1ccc2c(-c3ccccc3)nc3ccccc3n12,-,H37Rv,MIC,-,>12.5 µg/mL
COc1cc(O)c2c(c1)C(=O)c1cc(C)cc(O)c1C2=O,-,-,MIC,-,>128 µg/mL
O=C(Nc1cccc(F)c1)c1cc([N+](=O)[O-])ccc1O,-,CNCTC MY331/88,MIC,-,31 µM
CCOc1ccc(NC(C)=O)cc1,-,H37Ra,MIC,-,800 µg/mL
Fc1ccc(N(Cc2ccco2)C(=S)Nc2ccccc2)cc1Cl,1000 µg/mL,-,zone,visual reading,17.81 mm
COC(=O)C1=CCC2C(C(=O)O)=COC(OC3OC(CO)C(O)C(O)C3O)C12,12.5 µg/mL,H37Rv,inhibition,BACTEC,4%
O=C(Nc1ccc(Cl)c(Cl)c1)c1ccccc1O,-,CNCTC MY331/88,MIC,-,8 µM
C=CCn1c(C23CC4CC(CC(C4)C2)C3)n[nH]c1=S,12.5 µg/mL,H37Rv,inhibition,BACTEC,9%
CCCCCCCCCN1C(=O)CC(Nc2ccc(N3CCCCC3)cc2)C1=O,-,H37Rv,MIC,-,≤20 µg/mL
CC(C)C(=O)c1cn(-c2ccc(Cl)cc2)nn1,-,H37Rv,MIC,-,>12.5 µg/mL
Cc1cc(O)c2c(c1)C(=O)C=CC2=O,-,H37Rv,MIC,-,50 µg/mL
COc1cc(/C=C2/C(=O)NN(c3ccc(Cl)cc3)C2=O)cc([N+](=O)[O-])c1O,-,H37Rv,MIC,MTT,1.5 µM
Cc1cc2nc3ccc(=[N+](C)C)cc-3sc2cc1N,-,H37Rv,MIC,BACTEC,12.5 µg/mL
O=C1C=CC(=O)N1c1ccc(N2CCCCC2)cc1,-,H37Rv,MIC,-,≤20 µg/mL
O=C1C=CC(=O)C=C1,-,H37Ra,MIC,-,25 µg/mL
CCOC(=O)C1=C(C)O/C(=C\c2cccc(Cl)c2)C1=O,-,H37Rv,MIC bound,BACTEC,>12.5 µg/mL
NNC(=O)c1ccncc1,-,MTB23 (S),MIC,-,0.12 µg/mL
S=C(Nc1ccccc1)N(Cc1ccco1)c1ccc(Cl)c(Cl)c1,-,-,MIC,visual reading,25 µg/mL
CN(C=O)C(=S)[S][Sb]([S]C(=S)Nc1ccc(S(=O)(=O)Nc2ccc(N=Nc3ccccc3)cc2)cc1)[S]C(=S)N(C)C=O,-,H37Rv,MIC,BACTEC,16 µg/mL
CCCc1ccc(C(=O)Nc2nc3ccccc3s2)cc1,-,H37Rv,MIC,MTT,8.5 µM
CCCCCCCCCN1C(=O)CC(CC)C1=O,-,H37Ra,MIC,-,≤20 µg/mL
CCOC(=O)CCCC/C=N/NC(N)=S,-,H37Rv,MIC,-,10 µg/mL
COc1cc(CNc2ccc(B3OC(C)(C)C(C)(C)O3)cc2)ccc1O,200 µM,H37Ra,inhibition,resazurin,<50%
O=C(O)CC1CCC(=O)N1,-,H37Rv,MIC,-,>100 µg/mL
CCCCc1cc(C)c2cccc(CCCC)c2n1,-,H37Rv,MIC,-,>6.25 µg/mL
CC1CN(C(=O)/C=C/C(=O)OC2CCCCC2)CCN1C(=O)/C=C/C(=O)OC1CCCCC1,-,INH-r,MIC,-,6.3 µg/mL
CC(C)=CCC1=C(O)c2ccccc2C(=O)C1=O,-,H37Ra,MBC,-,400 µg/mL
CO[C@H]1/C=C/O[C@@]2(C)Oc3c(C)c(O)c4c(O)c(c5c(c4c3C2=O)NC2(CCN(CC(C)C)CC2)N=5)=NC(=O)/C(C)=C\C=C\[C@H](C)[C@H](O)[C@@H](C)[C@@H](O)[C@@H](C)[C@H](OC(C)=O)[C@@H]1C,-,20 strains,MIC90,-,0.035–0.07 µg/mL
C/C(=N/NC(=S)N1CCN(c2ccccc2)CC1)c1nccs1,6.25 µg/mL,H37Rv,inhibition,resazurin,94%
Oc1cc(O)c2c(c1)O[C@H](c1ccc(O)c(O)c1)[C@@H](O)C2,-,-,MIC,-,>128 µg/mL
COc1cc(CNC(=O)CCCC/C=C/C(C)C)ccc1O,-,H37Ra,MIC90,resazurin,200 µM
Cc1ccccc1C(C)(O)c1cnc(C)n1Cc1ccccc1,6.25 µg/mL,H37Rv,inhibition,-,5%
CCCCCCCCCN1C(=O)CC(NC(C)CCN(CC)CC)C1=O,-,H37Rv,MIC,-,≤20 µg/mL
S=C(N=Nc1ccccc1)NNc1ccccc1,-,H37Ra,MIC,-,400 µg/mL
C[C@@H]1[C@@H](C)NCCN1C(=S)S,-,H37Rv,MIC,BACTEC,≥12.5 µg/mL
Cc1cc(O)c2c(c1)C(=O)c1cc(O)cc(O)c1C2=O,-,-,MIC,-,128 µg/mL
O=C1C(=O)N(CCOCCN2C(=O)C(=O)c3cc(F)ccc32)c2ccc(F)cc21,-,H37Rv,MIC,resazurin,>32 µg/mL
O=C(c1cn(-c2ccccc2)nn1)c1ccc(Br)cc1Br,-,H37Rv,MIC,-,>12.5 µg/mL
CCOC(=O)c1c[nH]c(C(=O)OCC)c1-c1cc2c(-c3ccccc3)nc3ccccc3n2c1,-,H37Rv,MIC,-,>12.5 µg/mL
COc1cc(O)c2c(c1)OC(c1ccc(O)cc1)CC2=O,-,-,MIC,-,128 µg/mL
O=C1C(=O)N(CCOCCN2C(=O)C(=O)c3cc(Cl)ccc32)c2ccc(Cl)cc21,-,H37Rv,MIC,resazurin,>32 µg/mL
CCCCCCCCNCc1ccc(O)c(OC)c1,-,H37Ra,EC50,resazurin,144 µM
CC1(C)OCC(C2OC(C)(C)OC2/C=C2/CC(=O)NC2=O)O1,-,H37Rv,MIC bound,BACTEC,>12.5 µg/mL
CN(C)c1ccc(NC(=O)c2cc(F)ccc2O)cc1,-,CNCTC MY331/88,MIC,-,31 µM
CC(C(=O)N1c2ccccc2Sc2ccccc21)N1c2ccccc2Sc2ccccc21,-,H37Rv,MIC bound,BACTEC,>12.5 µg/mL
CCOC(=O)CSc1nc(N)c2c3c(sc2n1)CC(C(C)(C)C)CC3,-,mc4914,MIC,MTT,4 µM
O=C(O)CCC1=NNC(=O)CC1,-,H37Rv,MIC,-,>1000 µg/mL
CO[C@H]1/C=C/O[C@@]2(C)Oc3c(C)c(O)c4c(=O)c(c5oc6cc(N7CCN(CC(C)C)CC7)cc(=O)c6nc5c4c3=C2O)NC(=O)/C(C)=C\C=C\[C@H](C)[C@H](O)[C@@H](C)[C@@H](O)[C@@H](C)[C@H](OC(C)=O)[C@@H]1C,-,H37RV-PLN-2,MIC,-,≤0.015 µg/mL
COC(=O)C1=C/N(C2CCCCC2)C(=O)c2ccccc2/C(c2ccccc2)=C\1C(=O)OC,12.5 µg/mL,H37Rv,inhibition,BACTEC,12%
CC[C@H]1OC(=O)[C@H](C)C(=O)[C@H](C)[C@@H](O[C@@H]2O[C@H](C)C[C@H](N(C)C)[C@H]2O)[C@](C)(OC)C[C@@H](C)C(=O)[C@H](C)[C@H]2N(CCCCn3cnc(-c4cccnc4)c3)C(=O)O[C@]12C,-,H37Rv,MIC,-,>40 µg/mL
NC(=O)N=Nc1c(O)n(CCOCCn2c(O)c(N=NC(N)=O)c3ccccc32)c2ccccc12,-,H37Rv,MIC,resazurin,27.4 µg/mL
Cc1c(N2CC3CCCNC3C2)c(F)cc2c(=O)c(C(=O)O)cn([C@@H]3C[C@@H]3F)c12,-,45 (RFP-resistant),MIC,-,0.2 µg/mL
CNC(=S)N(c1ccc(Cl)c(Cl)c1)C(C)c1cccs1,-,-,MIC,visual reading,100 µg/mL
Cc1nc(C(N)=O)c(N)n1CCN1CCN(C(=O)CCCCCCCCCCNC2N=CNc3nc[nH]c32)CC1,12.5 µg/mL,H37Rv,inhibition,BACTEC,0%
C/C(=C\CC[C@H](C)[C@@H]1CC[C@]2(C)C3=CCC4C(C)(C)C(O)CC[C@]4(C)C3CC[C@@]12C)C(=O)O,-,-,MIC,-,32 µg/mL
CC1COc2c(N3CCN(C)CC3)c(F)cc3c(=O)c(C(=O)O)cn1c23,-,20 strains,MIC50,-,0.02 µg/mL
CCN(CC)CCNc1ccc(OC)c2sc3ccccc3c(=O)c12,-,H37Rv,MIC,BACTEC,6.25 µg/mL
O=C(O)c1cn(C2CC2F)c2c(Cl)c(N3CC4CCCNC4C3)c(F)cc2c1=O,-,56 (RFP-resistant),MIC,-,3.13 µg/mL
O=C(Nc1cccc([N+](=O)[O-])c1)c1cc(Br)ccc1O,-,CNCTC MY331/88,MIC,-,8 µM
CC(=O)N1N=C(C2=C(C)NC(=O)NC2c2ccccc2F)OC1c1ccccc1[N+](=O)[O-],250 µg/mL,H37Rv,inhibition,agar / visual reading,56%
CCCCCCC(O)CC[C@H]1CCC[C@@H](C)N1,12.5 µg/mL,H37Rv,inhibition,BACTEC,11%
CCC(C)N(C(=S)NC)c1ccc(F)c(Cl)c1,-,-,MIC,visual reading,>400 µg/mL
CC1=CC(=N\S(=O)(=O)c2ccccc2)/C2CC(C)=C(C)CC2/C1=N/S(=O)(=O)c1ccccc1,-,H37Rv,MIC bound,BACTEC,>12.5 µg/mL
CCOC(=O)c1[nH]cc(C)c1-c1cc2c(-c3ccccc3)nc3ccccc3n2c1,12.5 µg/mL,H37Rv,inhibition,-,97%
O=C1C=CC(=O)c2ccccc21,-,H37Ra,MBC,-,400 µg/mL
CCOC(=O)C1=CC(C)(C(=O)OCC)Nc2c(nc(N)[nH]c2=O)N1,6.25 µg/mL,H37Rv,inhibition,resazurin,2%
NC1CN(c2c(F)cc3c(=O)c(C(=O)O)cn(C4CC4)c3c2Cl)CC12CC2,-,50 (RFP-resistant),MIC,-,0.78 µg/mL

Again, the opening 12 rows:

structure | tested at | strain or isolate | read-out | method | value
[B-]1n2ccc[n+]2[B-]n2ccc[n+]21 | - | H37Rv | MIC | BACTEC | 64 µg/mL
CCCCCCCCCNCc1ccc(O)c(OC)c1 | - | H37Ra | MIC90 | resazurin | 150 µM
COC(=O)CSc1nc(N)c2c3c(sc2n1)CC(C(C)(C)C)CC3 | - | H37Rv | MIC | MTT | 1 µM
CO/N=C1\C(=O)N(CCOCCN2C(=O)/C(=N/OC)c3cc(Cl)ccc32)c2ccc(Cl)cc21 | - | H37Rv | MIC | resazurin | >32 µg/mL
O=C(c1ccc2ccccc2c1)c1cn(-c2cccc3ccccc23)nn1 | 12.5 µg/mL | H37Rv | inhibition | - | 0%
COc1ccc(CNc2nc(=O)c3cc(C(F)(F)F)cc([N+](=O)[O-])c3o2)cc1OC | - | H37Rv | MIC90 | resazurin | 29.22 µg/mL
O=C(Nc1cccc(F)c1)c1cc(F)ccc1O | - | CNCTC MY331/88 | MIC | - | 31 µM
S=C(Nc1ccccc1)N(c1ccc(Cl)c(Cl)c1)C1CCCCC1 | - | - | MIC | visual reading | 400 µg/mL
COc1ccccc1C1OC(C2=C(C)NC(=O)NC2c2ccccc2F)=NN1C(C)=O | 250 µg/mL | H37Rv | inhibition | agar / visual reading | 39%
CCCCCCCCCCCCCCCCCCNCc1ccc(O)c(OC)c1 | - | H37Ra | MIC90 | resazurin | 75 µM
CNC(=S)N(c1ccc(Cl)c(Cl)c1)C(C)C | - | - | MIC | visual reading | >400 µg/mL
CCOC(=O)CCC(=O)CCC(=O)OCC | - | H37Rv | MIC | - | 500 µg/mL

A number after MIC or MFC names an inhibition level or a share of isolates. ECn is the concentration giving n% inhibition of infection, replication or growth. MIC bound: limit read from a one-dose screen. Zones are inhibition diameters on agar. Neighbouring rows are from separate reports. An empty or dashed field is not shown. Percent inhibition refers to the dose given; in toxicity tests it is the harm to the cells.